Pooled drug test results. Numbers come from NIAID ChemDB, via PubChem.

Shared fields: growth or infection tests

Percent inhibition refers to the dose given; in toxicity tests it is the harm to the cells. ECn: concentration that inhibits the pathogen or its effect by n%. Rows are shuffled and stem from different studies. Blank or dashed fields: not listed here.

structure,agent,strain,cells,measure,tested at,result
Nc1nc(=O)n([C@@H]2C=C(CO)[C@@H](O)[C@H]2O)cc1I,Monkeypox virus,ZAIRE,-,EC50,-,3.7 µg/mL
CC(=O)c1ccc2c(c1)Sc1ccccc1S2,Poliovirus,TYPE 3,BSC-1,inhibition,10 µg/mL,100%
Nc1nc(=O)n([C@@H]2C=C(CO)[C@@H](O)[C@H]2O)cc1Br,Monkeypox virus,ZAIRE,-,EC50,-,>100 µg/mL
O=[N+]([O-])c1ccc2c(c1)c(N=NC(=S)Nc1ccc(Cl)cc1)c(O)n2CN1CCCCC1,Yellow fever virus,-,VERO,EC50,-,>20 µg/mL
Clc1ccc(C2=Cc3cc(Cl)ccc3OC2)cc1,Poliovirus,IA (TYPE 2),HEP-2,EC50,-,<10 µM
Nc1nccc2c1ncn2[C@@H]1C[C@H](CO)[C@@H](O)[C@H]1O,Variola virus,Isolate Bangladesh,VERO,EC50,-,1.2 µg/mL
CC(N)c1ccc2c(c1)Sc1ccccc1O2,Poliovirus,TYPE 3,BSC-1,inhibition,10 µg/mL,50%
CCNC(=S)N=Nc1c(O)[nH]c2ccc([N+](=O)[O-])cc12,Yellow fever virus,-,VERO,EC50,-,1.96 µg/mL
Nc1nc(=O)n([C@@H]2C=C(CO)[C@@H](O)[C@H]2O)cc1F,Monkeypox virus,MPX,MK2,EC50,-,0.61 µg/mL
Cn1cc(NC(=O)c2cc(NC(=O)c3cc(NC=O)cn3C)cn2C)cc1C(=O)NCCC(=N)N,Vaccinia virus,Noguchi,BSC-1,inhibition,50 µg/mL,100%
COC(=O)c1ncn([C@@H]2C[C@@H](Oc3ccc(C)cc3)[C@H](COc3ccc(C)cc3)O2)c1C(=O)OC,Lassa virus,-,-,EC50,-,2 µg/mL
C1=C(c2ccccc2)COc2ccccc21,Poliovirus,IB (TYPE 2),HEP-2,inhibition,10 µM,42%
Nc1ccn([C@@H]2C=C(CO)[C@@H](O)[C@H]2O)c(=O)n1,Variola virus,7124,MK2,EC50,-,0.08 µg/mL
Clc1ccc(C2COc3ccc(Cl)cc3C2)cc1,Poliovirus,TYPE 2,HEP-2,EC50,-,>10 µM
O=[N+]([O-])c1ccc(NC(=S)N=Nc2c(O)[nH]c3ccc([N+](=O)[O-])cc23)cc1,Yellow fever virus,-,VERO,EC50,-,4 µg/mL
Nc1ccn(C[C@@H](CO)OCP(=O)(O)O)c(=O)n1,Variola virus,Isolate Yamada,VERO,EC50,-,12.1 µg/mL
CC(=O)c1ccc2c(c1)[S@@](=O)c1ccccc1O2,Poliovirus,TYPE 3,BSC-1,inhibition,10 µg/mL,13%
Nc1ccn(C[C@H]2COP(=O)(O)CO2)c(=O)n1,Monkeypox virus,-,LLC-MK2,EC50,-,3.4 µg/mL
CC(O)c1cccc(Cc2ccccc2)c1,Poliovirus,TYPE 3,BSC-1,inhibition,10 µg/mL,100%
C=CCNC(=S)N=Nc1c(O)n(CN2CCCCC2)c2ccc([N+](=O)[O-])cc12,Yellow fever virus,-,VERO,EC50,-,>4 µg/mL
Cn1cc(NC(=O)c2cc(NC(=O)c3cc(NC(=O)c4cc(NC(=O)c5cc(NC=O)cn5C)cn4C)cn3C)cn2C)cc1C(=O)NCCC(=N)N,Vaccinia virus,Noguchi,BSC-1,inhibition,50 µg/mL,57%
C/C(=N\O)c1ccc2c(c1)Sc1ccccc1O2,Poliovirus,TYPE 3,BSC-1,inhibition,10 µg/mL,100%
CN1C(=O)CS/C1=N/N=C1\C(=O)Nc2ccc([N+](=O)[O-])cc21,Yellow fever virus,-,VERO,EC50,-,>20 µg/mL
CCC(O)c1ccc2c(c1)Sc1ccccc1O2,Poliovirus,TYPE 3,BSC-1,inhibition,10 µg/mL,100%
CNC(=S)N=Nc1c(O)n(CN2CCOCC2)c2ccc([N+](=O)[O-])cc12,Yellow fever virus,-,VERO,EC50,-,>100 µg/mL
CC(=O)c1ccc2c(c1)Sc1ccccc1O2,Poliovirus,TYPE 3,BSC-1,inhibition,10 µg/mL,100%
Clc1ccc(C2=Cc3ccccc3OC2)cc1,Poliovirus,IB (TYPE 2),HEP-2,inhibition,10 µM,15%